PubChem BioAssay AID1259414, Drosophila RNAi Screening Center | 2018
The deposit covers about 24,000 reagents; this is an unselected part of those with a known target gene and a result. In the full data, about 1,210 (5%) got an active call. 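Inactive calls also include excluded dsRNAs with several or no targets, genes unexpressed in JW18, and well A1, regardless of score.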

Screen: 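Genome-wide screen for host control of endosymbiont load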 (primary screen)
System: Drosophila JW18 cells infected with Wolbachia
Reagent: long dsRNA against Drosophila genes, 0.25 µg dsRNA per well of a 384-well plate
Duration: 5 days
Challenge: cells persistently infected with Wolbachia before knock-down; no added drug
Read-out: 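Imaged fluorescence in situ signal for Wolbachia 23S rRNA per DAPI-counted host cell, given as a robust z-score within each plate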
Direction: Wolbachia per cell robust z: higher = more Wolbachia per host cell than the plate typical
Hit rule: 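Active if absolute robust z reaches 1.5 in two or more of three replicates, leaving out multi- or no-target dsRNAs, genes unexpressed in JW18 and A1 wells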

Gene	amplicon	Wolbachia per cell robust z, rep 1	Wolbachia per cell robust z, rep 2	Wolbachia per cell robust z, rep 3	activity call
CG11670	DRSC14342	-0.34	0.956	0.767	inactive
CG13116	DRSC02214	-2.82	0.95	-1.88	inactive
CG13116	DRSC21945	-2.18	-1.33	-0.533	inactive
CG13116	DRSC26916	0.056	-0.291	-1.82	inactive
CG15530	DRSC15067	0.917	0.519	-5.75	inactive
CG15530	DRSC29873	0.136	-0.244	0.554	inactive
CG14820	DRSC10191	1.08	1.02	0.407	inactive
Chd1	DRSC00745	-0.682	-0.0311	-0.822	inactive
Eig71Eg	DRSC11154	0.709	0.019	-0.669	inactive
Crk	DRSC17163	1.35	1.37	1.91	inactive
CG13563	DRSC22153	-1.46	-1.6	0.213	inactive
CG9312	DRSC16471	-0.149	-0.676	0.748	inactive
CG13912	DRSC08381	0.426	0.651	0.913	inactive
Gbeta13F	DRSC20247	0.301	-8.78	0.178	inactive
se	DRSC10713	-1.63	-0.412	-0.306	inactive
CG17991	DRSC15294	-3.92	0.727	-2.93	active
Dyrk2	DRSC03610	0.576	-6.3	-3.82	active
Dyrk2	DRSC29029	0.264	0.37	1.42	inactive

As entered above:
Value for CG14820 [DRSC10191] in “Wolbachia per cell robust z, rep 3”: 0.407
Result for se [DRSC10713] in “Wolbachia per cell robust z, rep 2”: -0.412

Further reagents follow.
Gene	amplicon	Wolbachia per cell robust z, rep 1	Wolbachia per cell robust z, rep 2	Wolbachia per cell robust z, rep 3	activity call
CG13771	DRSC02277	0.677	0.221	0.877	inactive
smid	DRSC11398	-0.475	0.397	0.802	inactive
smid	DRSC28019	0.0414	-0.691	-1.49	inactive
CG15482	DRSC02492	0.564	0.751	-0.306	inactive
CG7214	DRSC03028	1.99	1.59	0.562	inactive
CG7214	DRSC21869	0.113	0.563	0.887	inactive
CG7214	DRSC29482	-1.37	-1.5	-1.15	inactive
CG4678	DRSC19911	0.309	-0.233	-1.94	inactive
CG4678	DRSC19912	-0.19	-1.48	-0.806	inactive
CG9997	DRSC16591	0.581	-0.925	-0.0323	inactive
CG9997	DRSC29613	-0.797	-1.29	-0.841	inactive
